A mixed list of measured activities; the numbers were collected in NIAID ChemDB.

Percent inhibition refers to the dose given; in toxicity tests it is the harm to the cells. MIC50, MIC90 and the like: level of inhibition, or share of isolates inhibited. Blank or dashed fields: not listed here. Neighbouring rows are from separate reports. MIC bound comes from a single tested concentration.

smiles	endpoint	tested at	read by	species	target	kind	strain or isolate	value
O[C@H]1[C@H](O)[C@@H](O)CN2CC[C@H](O)[C@H]12	MIC bound		BACTEC	Mycobacterium tuberculosis		culture	H37Rv	>12.5 µg/mL
C[C@H](NCCNCc1ccc(C(F)(F)F)cc1)C1CCCCC1	MIC			Mycobacterium tuberculosis		culture		50 µM
CCC1=CC(CC)C2C(=O)NC1C2C(=O)O	MIC			Mycobacterium tuberculosis		culture	H37Rv	>100 µg/mL
Clc1c2c(c(Cl)c3c1=Nc1ccc4ccccc4c1S3)=Nc1ccc3ccccc3c1S2	MIC		BACTEC	Mycobacterium tuberculosis		culture	H37Rv	≥12.5 µg/mL
CC(NCCNCCc1ccccc1F)c1cccc2ccccc12	MIC			Mycobacterium tuberculosis		culture		25 µM
CCCC1C(C(=O)OCC)C(=O)NC1(C(=O)OCC)C(=O)OCC	MIC bound		BACTEC	Mycobacterium tuberculosis		culture	H37Rv	>12.5 µg/mL
O=C1CCCC1	MIC			Mycobacterium tuberculosis		culture	H37Rv	100 µg/mL
Cc1cc(C)c2nc3c(c(C(O)C4CCCCN4)c2c1)CC/C3=C\c1ccc(Cl)cc1	MIC bound		resazurin	Mycobacterium tuberculosis		culture	H37Rv	>6.25 µg/mL
O=C1CCCN1CCCNCCNCCc1ccccc1F	MIC			Mycobacterium tuberculosis		culture		50 µM
Cn1c(=O)c2nc3c(nc2n(C)c1=O)c(=O)n(C)c(=O)n3C	inhibition	12.5 µg/mL	BACTEC	Mycobacterium tuberculosis		culture	H37Rv	0%
CC(CNCCc1ccc(O)cc1)NC[C@@H]1CC[C@H]2C[C@@H]1C2(C)C	MIC			Mycobacterium tuberculosis		culture		25 µM
O=C(Nc1cc(Cl)ccc1O)c1ccccc1	MIC			Mycobacterium tuberculosis		culture	H37Rv	>100 µg/mL
COc1ccccc1CCNCCNCCc1ccc(OC)c(OC)c1	MIC			Mycobacterium tuberculosis		culture		50 µM
Fc1ccc(N2CCCCC2)c(NC(=S)c2ccncc2)c1	inhibition	10 µM	kinase activity		PKUmu	host protein		12%
O=C(O)CCSC(=S)NCCNC(=S)SCCC(=O)O	MIC bound		resazurin	Mycobacterium tuberculosis		culture	H37Rv	>6.25 µg/mL
CCCCCCCCCCCNCCNCc1cccc2ccccc12	MIC			Mycobacterium tuberculosis		culture		25 µM
O=C(O)c1ccccc1C1NC(C(=O)O)CC2c3ccccc3NC21	MIC bound		BACTEC	Mycobacterium tuberculosis		culture	H37Rv	>12.5 µg/mL
Cc1c(Br)c(Br)c(O)c(Br)c1Br	MIC			Mycobacterium tuberculosis		culture	H37Rv	100 µg/mL
CCCCN(CCCC)CCCCNc1ccc(C)c2sc3ccccc3c(=O)c12	MIC bound		BACTEC	Mycobacterium tuberculosis		culture	H37Rv	≤12.5 µg/mL
CC(=O)CC(=O)Nc1cc(C)ccn1	MIC			Mycobacterium tuberculosis		culture	H37Rv	>100 µg/mL
CCCCCCCCCCCNCCNCc1ccccc1	MIC			Mycobacterium tuberculosis		culture		25 µM
CCCCCCCCCN=C(N)N	MIC			Mycobacterium tuberculosis		culture	H37Rv	>100 µg/mL
Cl.Cl.N=C(N)c1ccc2oc3ccc(C(=N)N)cc3c(=O)c2c1	MIC		BACTEC	Mycobacterium tuberculosis		culture	H37Rv	≥12.5 µg/mL
CC(=O)CN1C(=O)c2ccccc2C1=O	MIC			Mycobacterium tuberculosis		culture	H37Rv	>100 µg/mL
O=C1NC(CN2CCC(O)CC2)C(=O)NC1CN1CCC(O)CC1	inhibition	12.5 µg/mL	BACTEC	Mycobacterium tuberculosis		culture	H37Rv	23%
Nc1ccc2ccc(S(=O)(=O)O)cc2c1	MIC			Mycobacterium tuberculosis		culture	H37Rv	>100 µg/mL
CC1CCC(NCCNC2CCCCCCC2)CC1	MIC			Mycobacterium tuberculosis		culture		50 µM
CCN(CC)c1ccc(C(=O)c2ccccc2C(=O)O)cc1[N+](=O)[O-]	MIC			Mycobacterium tuberculosis		culture	H37Rv	>100 µg/mL
C=CCc1ccc(OC)c(OC)c1	MIC90		turbidity	Candida tropicalis		culture	3000	350 µg/mL
O=S(=O)([O-])c1cc2cc(S(=O)(=O)[O-])c(N=Nc3ccc(S(=O)(=O)[O-])c4ccccc34)cc2cc1N=Nc1cccc2ncccc12.[Na+].[Na+].[Na+]	MIC			Mycobacterium tuberculosis		culture	H37Rv	>100 µg/mL
NNC(=O)C1CCN1C(c1ccccc1)c1ccccc1	MIC bound		BACTEC	Mycobacterium tuberculosis		culture	H37Rv	>12.5 µg/mL
[O-][N+](=Nc1ccccc1)c1ccccc1	MIC			Mycobacterium tuberculosis		culture	H37Rv	100 µg/mL
CC(C)c1ccc2c(c1)CC[C@H]1[C@](C)(CNCCNC3CCc4ccccc43)CCC[C@]21C	MIC			Mycobacterium tuberculosis		culture		25 µM

Repeating the final 3 entries:

NNC(=O)C1CCN1C(c1ccccc1)c1ccccc1 ; endpoint: MIC bound ; read by: BACTEC ; species: Mycobacterium tuberculosis ; kind: culture ; strain or isolate: H37Rv ; value: >12.5 µg/mL
[O-][N+](=Nc1ccccc1)c1ccccc1 ; endpoint: MIC ; species: Mycobacterium tuberculosis ; kind: culture ; strain or isolate: H37Rv ; value: 100 µg/mL
CC(C)c1ccc2c(c1)CC[C@H]1[C@](C)(CNCCNC3CCc4ccccc43)CCC[C@]21C ; endpoint: MIC ; species: Mycobacterium tuberculosis ; kind: culture ; value: 25 µM